Pooled drug test results. Numbers come from NIAID ChemDB, via PubChem.

Shared fields: growth or infection tests; agent: HIV-1; endpoint: inhibition

Neighbouring rows are from separate reports. Blank or dashed fields: not listed here. Percent inhibition refers to the dose given; in toxicity tests it is the harm to the cells.

smiles | strain | read by | conditions | cell line | tested at | mutations | result
S=C1CN(c2ccccc2)Cc2nc(Cl)ccc2N1 | BRU | syncytia | - | MT-4 | 5 µg/mL | - | 100%
COC(=O)C1Cc2c(c3ccccc3n2C)C(C)=N1 | NL4-3 | p24 / ELISA / antigen | - | CEM-GFP | 19.66 µM | - | 0%
CCOC(=O)c1c(C(C)C)c(C#N)c(=N)n2ccccc12 | - | cytopathic effect | - | MT-2 | 8 µM | - | 85%
Nc1nc(=O)n([C@@H]2C[C@H](O)[C@@H](CO)O2)cc1-c1cccs1 | IIIB | RT activity | - | H9 | 10 µg/mL | - | <1%
Nc1cccc(CN2C(=O)N(Cc3cccc(N)c3)[C@H](Cc3ccccc3)[C@H](O)[C@@H](O)[C@H]2Cc2ccccc2)c1 | RF | hybridisation | - | MT-2 | 0.023 µg/mL | - | 90%
Cc1ccc(C(=O)OC[C@H]2O[C@@H](n3cc(-c4ccncc4)c(N)nc3=O)C[C@@H]2OC(=O)c2ccc(C)cc2)cc1 | IIIB | RT activity | - | H9 | 10 µg/mL | - | 57.5%
Cc1cn([C@@H]2O[C@H](CO)[C@@H](N=[N+]=[N-])[C@@H]2F)c(=O)[nH]c1=O | IIIB | antigen | - | H9 | 100 µM | - | 0%
CC[C@@]1(O)C(=O)OCc2c1cc1n(c2=O)Cc2cc3ccccc3nc2-1 | IIIB | RT activity | - | H9 | 0.02 µM | - | 93%
CC[C@H](CO)Nc1nc(NCc2ccc(-c3ccccc3)cc2)[n+]2[nH]cc(C(C)C)c2n1 | - | luciferase | - | U1 | 0.05 µM | - | <5%
Cc1cn([C@H]2C[C@H](N=[N+]=[N-])[C@@H](CO)O2)c(=O)[nH]c1=O | NL4-3-Luc VSV pseudotyped | luciferase | - | Jurkat cells | 10 µM | - | 95.5%
Nc1ccn([C@@H]2C[Se][C@H](CO)O2)c(=O)n1 | BRU | RT activity | - | PBMC | 0.95 µM | - | 90%
CC(=O)Nc1ccc(OC(=O)c2ccc(N=C(N)N)cc2)cc1 | - | XTT / p24 | - | MT-4 | 100 µg/mL | - | 100%
Cc1c(O)c(=O)ccn1C | BaL | XTT / p24 | - | Macrophage + Monocytes/macrophages | 100 µM | - | 0%
Nc1ncnc2c1ncn2CCOCP(=O)(O)O | BaL | p24 / syncytia | - | Macrophage + Monocytes/macrophages | 0.05 µM | - | 77%
c1cc(CN2CCCNCCNCCCNCC2)ccc1CN1CCCNCCNCCCNCC1 | SW7 CLADE C X4 | p24 | - | PBMC | 0.1 µM | - | 87%
CCCCCCc1ccsc1-c1cn([C@H]2C[C@H](OC(=O)c3ccc(C)cc3)[C@@H](COC(=O)c3ccc(C)cc3)O2)c(=O)[nH]c1=O | IIIB | RT activity | - | H9 | 10 µg/mL | - | 70%
Cc1cn([C@H]2C[C@H](F)[C@@H](CO)O2)c(=O)[nH]c1=O | 121-2(PRE-AZT) | RT activity | - | MT-4 | 0.026 µM | - | 95%
Nc1ccn([C@H]2C=C[C@@H](CO)O2)c(=O)n1 | LAV | RT activity | - | PBMC | 0.1 µM | - | 73.3%
O=CO[C@H]1C[C@H](n2ccc(=O)[nH]c2=O)O[C@@H]1CO | - | cytopathic effect | - | CEM | 100 µM | - | 15%
CCCCC/C=C\C/C=C\C/C=C\C/C=C\CCCC(=O)C(F)(F)F | NL4-3-Luc VSV pseudotyped | luciferase | - | Jurkat cells | 5 µM | - | 52%
CC(=O)N1CCC(C(=O)N(CCCN2CCC(Cc3ccc(C(N)=O)cc3)CC2)c2ccc(C)c(Cl)c2)CC1 | HNK R5 clinical isolate | p24 | - | PBMC | 0.028 µM | - | 90%
CC(C)[C@H](NC(=O)c1ccccn1)C(=O)N[C@@H](Cc1ccccc1)[C@H](O)[C@H](O)[C@H](Cc1ccccc1)NC(=O)[C@@H](NC(=O)c1ccccn1)C(C)C | P14-167(PR-G48V L10F) | p24 | - | MT-4 | 48 µM | PR-G48V L10F | 90%
CCCCCCCCCCCCCC(=O)OC[C@@H](COP(=O)(O)OC[C@@H]1CC[C@H](n2ccc(N)nc2=O)O1)OC(=O)CCCCCCCCCCCCC | LAV-Bru | ELISA | - | CEM13 + CEM | 10 µM | - | 99%
C=C(C)[C@@H]1CC[C@]2(C(=O)NCCCCCCCC(=O)N[C@@H](CC(C)C)[C@H](O)CC(=O)O)CC[C@]3(C)[C@H](CC[C@@H]4[C@@]5(C)CC[C@H](O)C(C)(C)[C@@H]5CC[C@]43C)[C@@H]12 | DH012 | RT activity | - | MT-4 | 53 µM | - | ~90%
Cc1cn([C@H]2CC[C@@H](CO)O2)c(=O)[nH]c1=O | IIIB | ELISA | - | MT-4 | 1 µM | - | 81%
O=C(CCC(=O)Nc1ccn([C@H]2CC[C@@H](CO)O2)c(=O)n1)Nc1ccn([C@H]2CC[C@@H](CO)O2)c(=O)n1 | - | cytopathic effect | - | - | 1 µM | - | 90%
CN=C1CN(c2ccccc2)Cc2nc(Cl)ccc2N1 | BRU | p24 | - | MT-4 | 10 µg/mL | - | 43.1%
Nc1nc(=O)n([C@@H]2C[C@H](O)[C@@H](CO)O2)cc1-c1ccccn1 | IIIB | RT activity | - | H9 | 10 µg/mL | - | 15%
O=Nc1c(-c2c(O)[nH]c3ccccc23)[nH]c2ccccc12 | IIIB | p24 | - | PM1 | 0.5 µM | - | 55%
CC1(C)Oc2ccc3ccc(=O)oc3c2[C@@H](OC(=O)C23CCC(C)(C(=O)O2)C3(C)C)[C@H]1OC(=O)C12CCC(C)(C(=O)O1)C2(C)C | - | p24 | 28 d | Monocytes | 0.000016 µM | - | 47.8%
Cc1cn([C@H]2C[C@H](N=[N+]=[N-])[C@@H](CO)O2)c(=O)[nH]c1=O | LAV | RT activity | - | PBMC | 0.1 µM | - | 94%
Nc1nc(=O)n([C@H]2C[C@H](O)[C@@H](CO)O2)cc1C1CC1 | IIIB | RT activity | - | H9 | 10 µg/mL | - | 1%
Cc1cn([C@H]2C[C@H](N=[N+]=[N-])[C@@H](CO)O2)c(=O)[nH]c1=O | Clinical isolate | p24 / RT activity | clinical isolate | PBMC | 0.0284 µM | - | 90%
Cc1cn([C@H]2C[C@H](N=[N+]=[N-])[C@@H](CO)O2)c(=O)[nH]c1=O | IIIB | p24 | - | MT-4 | 1 µM | - | 100%
Cc1cn([C@H]2CC[C@@H](CO)O2)c(=O)n(N)c1=O | BRU | cytopathic effect / MTT | - | CEM-C113 + CEM/C113 | 100 µM | - | 0%
Cc1nc(C(=O)C2CSCCN2)cc2c3ccccc3n(Cc3ccccc3)c12 | NL4-3 | p24 / ELISA / antigen | - | CEM-GFP | 6.22 µM | - | 0%
C[C@@H]1[C@H](O)[C@@H](C)/C=C/C=C/C=C/C=C/C=C/C=C/C=C/[C@H](O[C@@H]2O[C@H](C)[C@@H](O)[C@H](N)[C@@H]2O)CC2O[C@](O)(CC(O)C(O)CCC(O)CC(O)CC(O)CC(=O)O[C@H]1C)CC(O)C2C(=O)O.O=S(=O)(O)O | LAV | cytopathic effect | - | MT-4 | 7.8 µg/mL | - | 100%
Cc1cn([C@H]2C[C@H](N=[N+]=[N-])[C@@H](CO)O2)c(=O)[nH]c1=O | IIIB | RT activity | - | PBMC | 0.01 µM | - | 60%
CC[C@H](CO)Nc1nc(NCc2ccc(-c3ccccn3)cc2)[n+]2[nH]cc(C(C)C)c2n1.O=C(O)/C=C/C(=O)O.O=C(O)/C=C/C(=O)O | - | luciferase | - | U1 | 0.05 µM | - | <25%
O=C(O)/C=C/c1ccc[c]([Sb](=[O])([OH])[OH])c1 | 92BR019 R5 clinical isolate | β-galactosidase | - | MAGI | 10 µM | - | 53.7%
Nc1nc(=O)n([C@@H]2C[C@H](O)[C@@H](CO)O2)cc1-c1ccoc1 | IIIB | RT activity | - | H9 | 10 µg/mL | - | 20%
CCCCCCCCCCCCCC(=O)OC[C@@H](COP(=O)(O)OC[C@@H]1CC[C@H](n2cnc3c(N)ncnc32)O1)OC(=O)CCCCCCCCCCCCC | IIIB | ELISA | - | MT-4 | 1 µM | - | 74%
CCCCCn1c2ccccc2c2cc(C(=O)C3CSCCN3)nc(C)c21 | NL4-3 | p24 / ELISA / antigen | - | CEM-GFP | 1.36 µM | - | 0%
O=C1OC(C2OC(=O)c3cc(O)c(O)c(O)c3-c3c(O)c(O)c4oc(=O)c5c(c(O)c(O)c6oc(=O)c3c4c65)-c3c(cc(O)c(O)c3O)C(=O)OCC2O)C2OC(=O)c3c(c(O)c(O)c(O)c3C2O)-c2c1cc(O)c(O)c2O | IIIB | p24 | - | H9 | 5 µg/mL | - | 63%
Nc1ncnc2c1ncn2[C@H]1CC[C@@H](CO)O1 | LAV-Bru | ELISA | - | CEM13 + CEM | 10 µM | - | 90%
O=C(O)c1cc(C(O)(c2ccc(O)c(C(=O)O)c2)c2ccc(O)c(C(=O)O)c2)ccc1O | RF | cytopathic effect | - | CEM | 167 µg/mL | - | 89%
C[C@H](NC(=O)[C@H](CCCN=C(N)N)NC(=O)c1ccc(CNCc2ccccn2)cc1)c1cccc2ccccc12 | IIIB X4 laboratory isolate | cytopathic effect / MTT | - | MT-4 | 0.0478 µM | - | 90%
Cc1ccc(-c2ccc3c(c2)C=C(C(=O)Nc2ccc(C[N+](C)(C)C4CCOCC4)cc2)CCC3)cc1 | BaL | β-galactosidase | - | MAGI + MAGI-CCR5 | 0.0057 µM | - | 90%
CCc1cc(NCc2nc3c(C)ccc(C)c3o2)c(=O)[nH]c1C | RF | p24 | - | MT-4 | 0.05 µM | - | 95%
CCN(CCO)CCCC(C)Nc1ccnc2cc(Cl)ccc12 | IIIB | RT activity | - | CEM | 10 µg/mL | - | 20%
Cc1nc(C(=O)C2CCCNC2)cc2c1[nH]c1ccccc12 | NL4-3 | p24 / ELISA / antigen | - | CEM-GFP | 1.71 µM | - | 0%
O=C(O)P(=O)(O)O | IIIB | RT activity | 6 d | PBL | 32 µM | - | 92%
[Se] | LAV | RT activity | - | U1 | 0.025 µg/mL | - | 22%
CCN(CC)CCCC(C)Nc1ccnc2cc(Cl)ccc12 | NL4-3 | p24 / ELISA / antigen | - | PBMC | 10 µM | - | 60%
O=S(=O)(O)c1cc(N=C=S)ccc1/C=C/c1ccc(N=C=S)cc1S(=O)(=O)O | GB8 | p24 | - | JM | 50 µg/mL | - | 44%
C[C@H]1/C=C/[C@@]2(C)CC[C@@H](C(C)(C)O)[C@@H]2[C@@H](O)C[C@](C)(O)/C=C/C1 | 95BRRJ021 R5 | p24 | - | PBMC | 25 µM | - | 94%
O=C(O)P(=O)(O)O | IIIB | p24 / antigen | 6 d | H9 | 300 µM | - | 92%
CC(C)(C)NC(=O)[C@@H]1C[C@@H]2CCCC[C@@H]2CN1C[C@@H](O)[C@H](Cc1ccccc1)NC(=O)[C@H](CC(N)=O)NC(=O)c1ccc2ccccc2n1 | Saquinavir-resistant (PR G48V L90M) | RT activity | 10 d | CEM + CEM-SS | 0.1 µM | PR-G48V L90M | 100%
Nc1nc(=O)n([C@H]2C[C@H](O)[C@@H](CO)O2)cc1-c1ccco1 | IIIB | RT activity | - | H9 | 10 µg/mL | - | 25%
OCC(S)CS | IIIB-C-3 | RT activity | - | H9 | 5 µg/mL | - | 90%
O=C(NCc1ccc(F)cc1)c1nc(N2CCCCS2(=O)=O)c2cccnc2c1O | BaL | p24 | - | PBMC | 0.022 µM | - | 95%
CN=C1CN=C(c2ccc[nH]2)c2cc(Cl)ccc2N1 | LAV-1 | syncytia | - | HT4 + HT4-6C | 0.316 µM | - | 43%

4 of the rows above, restated:

smiles,strain,read by,conditions,cell line,tested at,mutations,result
Cc1cn([C@H]2C[C@H](N=[N+]=[N-])[C@@H](CO)O2)c(=O)[nH]c1=O,IIIB,p24,-,MT-4,1 µM,-,100%
O=C(O)c1cc(C(O)(c2ccc(O)c(C(=O)O)c2)c2ccc(O)c(C(=O)O)c2)ccc1O,RF,cytopathic effect,-,CEM,167 µg/mL,-,89%
Nc1cccc(CN2C(=O)N(Cc3cccc(N)c3)[C@H](Cc3ccccc3)[C@H](O)[C@@H](O)[C@H]2Cc2ccccc2)c1,RF,hybridisation,-,MT-2,0.023 µg/mL,-,90%
CN=C1CN=C(c2ccc[nH]2)c2cc(Cl)ccc2N1,LAV-1,syncytia,-,HT4 + HT4-6C,0.316 µM,-,43%